Compound potency records, mixed from different reports. Data source: NIAID ChemDB in PubChem.

All rows: host cell toxicity; cells: MRC-5; measure: CC50

CCn: concentration that lowers growth or viability of the cells by n%. Lines come from different laboratories, so protocols vary. An empty or dashed field is not shown.

structure | method | value
O=C1c2ccccc2N(Cc2ccc(C(F)(F)F)cc2)S(=O)(=O)N1Cc1ccccc1 | - | >56 µM
FC(F)(F)Oc1ccc(-c2cc3ccccn3c2)cc1 | MTT | 100 µM
CCO/N=C/c1ccc(OCCC2CCN(c3ccc(C)nn3)CC2)cc1C | neutral red | >0.1 µg/mL
CCc1cn([C@H]2C[C@H](O)[C@@H](CO)O2)c(=S)nc1N | - | >277.4 µM
CCOP(=O)(O)CCCOCn1c(Br)nc2c(=O)[nH]c(N)nc21 | visual reading | 1146 µM
CCCCN1C(=O)c2ccccc2N(C(=O)c2ccc(Br)cc2)S1(=O)=O | - | 51.5 µM
Clc1ccc2c(NCCNC(CCC3CCNCC3)c3ccccc3)ccnc2c1 | fluorescence | 0.008 µM
CCOP(=O)(CCC(COC)OCn1cnc2c(Cl)nc(N)nc21)OCC | visual reading | 187 µM
O=C1c2ccccc2N(Cc2ccc(Cl)cc2)S(=O)(=O)N1Cc1ccc(Cl)cc1 | - | >56 µM
C#CCN1C(=O)c2ccccc2N(Cc2ccc(Cl)cc2)S1(=O)=O | - | 13.8 µM
O=c1[nH]c(=S)n([C@@H]2O[C@H](CO)[C@@H](O)[C@@H]2O)cc1CCO | - | >213 µM
Nc1ccn(C[C@H]2COP(=O)(O)CO2)c(=O)n1 | - | >3000 µM
O=C(C1=NN(c2ccccc2)C2C3N(c4ccccc4)N=C(C(=O)c4ccccc4)N3c3ccccc3N12)c1ccccc1 | resazurin | 64 µM
Nc1nc2c(ncn2CO[C@H](CO)CCP(=O)(O)O)c(=O)[nH]1 | visual reading | 1023 µM
CCCc1cn([C@H]2C[C@H](O)[C@@H](CO)O2)c(=S)nc1N | - | >277.4 µM
CCCCCCCCCCCCCCCCCCOCCOP(=O)(O)CCCOCn1cnc2c(=O)[nH]c(N)nc21 | - | 36 µM
O=c1[nH]c(=S)n([C@@H]2O[C@H](CO)[C@@H](O)[C@@H]2O)cc1/C=C/Br | - | >213 µM
CCCCCCCCCCCCCCCCOCCCOP(=O)(O)CCCOCn1cnc2c(=O)[nH]c(N)nc21 | - | 23 µM
CO/N=C/c1ccc(OCCC2CCN(c3ccc(C)nn3)CC2)c(C)c1 | neutral red | >0.1 µg/mL
Nc1nc(N)c2ncn(OCCCCP(=O)(O)O)c2n1 | - | >100 µg/mL
Nc1nc2c(ccn2[C@@H]2C[C@H](CO)[C@H](O)[C@@H]2O)c(=O)[nH]1 | - | >100 µg/mL
Cc1cn([C@H]2C[C@H](O)[C@@H](CO)O2)c(=S)nc1N | - | >300.8 µM
Brc1sccc1-c1cc2ccccn2c1 | MTT | 500 µM
CO/N=C(\C)c1ccc(OCCC2CCN(c3ccc(Cl)nn3)CC2)c(OC)c1 | visual reading | >1 µg/mL
CCCCN1C(=O)c2ccccc2N(CCCc2ccccc2)S1(=O)=O | - | 59.4 µM
CC(=O)c1c(-c2ccc(C#N)cc2)cc2ccccn12 | MTT | >500 µM
CCO/N=C/c1ccc(OCCC2CCN(c3ccc(Cl)nn3)CC2)c(OC)c1 | neutral red | >0.1 µg/mL
C=Cc1cn([C@H]2C[C@H](O)[C@@H](CO)O2)c(=S)[nH]c1=O | - | >277.6 µM
CCCCCCCCCCCCCCCCOCCCOP(=O)(O)OCC(CO)OCn1cnc2c(=O)[nH]c(N)nc21 | - | >158 µM
O=C1c2ccccc2N(Cc2ccc(Cl)c(Cl)c2)S(=O)(=O)N1Cc1ccccc1 | - | >56 µM
CCCCCCCCCCCCCCCCOCCCOP(=O)(O)CCCOCn1cnc2c(NC3CC3)nc(N)nc21 | - | 41 µM
COCC(CCP(=O)(O)O)OCn1cnc2c(=O)[nH]c(N)nc21 | visual reading | >2362 µM
CCCCCCCC/C=C\CCCCCCCCOCCOP(=O)(O)CCCOCn1cnc2c(=O)[nH]c(N)nc21 | - | 30 µM
CCCc1cn([C@H]2C[C@H](O)[C@@H](CO)O2)c(=S)[nH]c1=O | - | >277.6 µM
Nc1ncnc2c1ncn2OCCCCP(=O)(O)O | - | >100 µg/mL
O=C(O)/C=C/c1cn([C@@H]2O[C@H](CO)[C@@H](O)[C@@H]2O)c(=S)[nH]c1=O | - | >213 µM
Fc1ccccc1-c1cc2ccccn2c1 | MTT | 500 µM
CCCCCCCCCCCCCCCCOCCCOP(=O)(O)OCC(CO)CCn1cnc2c(=O)[nH]c(N)nc21 | - | >300 µM
CC(C)COC1=NS(=O)(=O)N(Cc2ccc(Cl)c(Cl)c2)c2ccccc21 | - | 60.4 µM
COc1ccc(CN2c3ccccc3C(OCc3ccccc3)=NS2(=O)=O)cc1 | - | >61 µM

Repeating the first 4 entries:

structure | method | value
O=C1c2ccccc2N(Cc2ccc(C(F)(F)F)cc2)S(=O)(=O)N1Cc1ccccc1 | - | >56 µM
FC(F)(F)Oc1ccc(-c2cc3ccccn3c2)cc1 | MTT | 100 µM
CCO/N=C/c1ccc(OCCC2CCN(c3ccc(C)nn3)CC2)cc1C | neutral red | >0.1 µg/mL
CCc1cn([C@H]2C[C@H](O)[C@@H](CO)O2)c(=S)nc1N | - | >277.4 µM